## Sequence variants of PSTVd loop 1 after infection

Source: Wu et al. 2024 (doi:10.1371/journal.ppat.1012142), supplementary data.

The pool varies loop 1 of the PSTVd intermediate strain in the pattern CNNNNG; wild type is CCUCGG (5' to 3', with the closing base pair).

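A pool of all variants was put on leaves of three Nicotiana benthamiana plants. Samples came from the inoculated region at 5 days, the leaf margin at 10 and upper systemic leaves at 12.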

Numbers give reads per thousand; 0 = not seen among the reads, higher = more abundant. Each value is the mean of three plants. "Pool" is the share in the plasmid pool used as inoculum, on the same scale. The inoculated region was read from the minus strand, the other sites from the plus strand. IR is the inoculated region, LM the leaf margin, Sys the systemic leaves. Wild type was 20.1 per thousand in the pool and the most common sequence in every sample (inoculated region 197, 219, 222; leaf margin 828, 823, 779; systemic leaves 914, 907, 857). Samples held 32,791 to 60,834 reads, so the smallest values rest on one or two reads. The authors trace changes outside the varied positions to PCR and sequencing errors or to mutation in the plant; presence does not show that a variant is infectious alone.

For AUAAAG (pool 0.0131) the result was IR 0; LM 0; Sys 0. CGAGUU (pool 0.0131) read IR 0; LM 0; Sys 0. CACAGG (pool 3.56) read IR 2.52; LM 0; Sys 0. CCCUAG (pool 3.49) gave IR 2.86; LM 0.0172; Sys 0.00548. With CGCGAG (pool 4.34) the assay gave IR 2.80; LM 0.0137; Sys 0.00548. With CGGAAG (pool 5.16) the assay gave IR 3.13; LM 0.00663; Sys 0.0110.

CUGCAG (pool 3.01) read IR 2.78; LM 0.00663; Sys 0. With CACGAG (pool 3.48) the assay gave IR 2.78; LM 0; Sys 0. For CUGGCG (pool 4.45) the result was IR 2.88; LM 0; Sys 0.0177. CACAUG (pool 3.38) read IR 2.73; LM 1.08; Sys 0.531. With CGGUUG (pool 4.53) the assay gave IR 2.78; LM 0.0137; Sys 0.0329. CGCUAG (pool 3.99) read IR 2.83; LM 0.0234; Sys 0.

For CCUUGG (pool 3.27) the result was IR 11.8; LM 0.138; Sys 0.0987. With CUCAAG (pool 3.47) the assay gave IR 2.87; LM 0.00704; Sys 0.0169. With CGAAGG (pool 3.42) the assay gave IR 2.45; LM 0.0207; Sys 0. For CGAGGG (pool 3.25) the result was IR 2.83; LM 0.0238; Sys 0. With CACCCG (pool 4.55) the assay gave IR 2.73; LM 0.0415; Sys 0.00548. CAAAUG (pool 4.06) read IR 2.59; LM 0.00663; Sys 0.

CUAAUG (pool 3.88) gave IR 2.88; LM 0.0102; Sys 0. CCAUAG (pool 3.51) read IR 2.72; LM 1.34; Sys 0.553. With GCUCGU (pool 0.0131) the assay gave IR 0; LM 0; Sys 0.0182. CGUUUG (pool 4.09) gave IR 2.66; LM 0.00704; Sys 0. CGCUUG (pool 3.73) gave IR 3.09; LM 0.0172; Sys 0. With CCACGG (pool 3.10) the assay gave IR 2.67; LM 6.75; Sys 2.47.

Extract of 2 entries:

| sequence | pool | IR | LM | Sys |
|---|---|---|---|---|
| CGCUUG | 3.73 | 3.09 | 0.0172 | 0 |
| CUGCAG | 3.01 | 2.78 | 0.00663 | 0 |